In patent US20220089698A1, “ANTIBODIES THAT TARGET HIV GP120 AND METHODS OF USE” (published 2022):
Changes are numbered by the printed parent chain. Where two headings read alike, the source gives them in different places.

Experiments:
Assay in all cases: cell-based or functional assay
[1] = target: HIV-1 envelope glycoprotein (gp120) of virus 92US712 (HIV-1)
[2] = target: HIV-1 envelope glycoprotein (gp120) of virus 7576 (HIV-1)
[3] = target: HIV-1 envelope glycoprotein (gp120) of virus 7051 (HIV-1)
[4] = target: HIV-1 envelope glycoprotein (gp120) of virus 92HT593 (HIV-1)
[5] = target: HIV-1 envelope glycoprotein (gp120) of virus CH106 (HIV-1)
[6] = target: HIV-1 envelope glycoprotein (gp120) of virus 1413 (HIV-1)
[7] = target: HIV-1 envelope glycoprotein (gp120) of virus THRO (HIV-1)
[8] = target: HIV-1 envelope glycoprotein (gp120) of virus 8320 (HIV-1)
[9] = target: HIV-1 envelope glycoprotein (gp120) of virus 8398 (HIV-1)
[10] = target: HIV-1 envelope glycoprotein (gp120) of virus 7552 (HIV-1)
[11] = target: HIV-1 envelope glycoprotein (gp120) of virus 8339 (HIV-1)
[12] = target: HIV-1 envelope glycoprotein (gp120) of virus CH040 (HIV-1)
[13] = target: HIV-1 envelope glycoprotein (gp120) of virus 7595 (HIV-1)
[14] = target: HIV-1 envelope glycoprotein (gp120) of virus 92US727 (HIV-1)
[15] = target: HIV-1 envelope glycoprotein (gp120) of virus 7141 (HIV-1)
[16] = target: HIV-1 envelope glycoprotein (gp120) of virus 7007 (HIV-1)
[17] = target: HIV-1 envelope glycoprotein (gp120) of virus 8318 (HIV-1)
[18] = target: HIV-1 envelope glycoprotein (gp120) of virus RHPA (HIV-1)
[19] = target: HIV-1 envelope glycoprotein (gp120) of virus 7015 (HIV-1)
[20] = target: HIV-1 envelope glycoprotein (gp120) of virus 92US657 (HIV-1)
[21] = target: HIV-1 envelope glycoprotein (gp120) of virus VS001 (HIV-1)
[22] = target: HIV-1 envelope glycoprotein (gp120) of virus 92US727 (HIV-1); remark: listed apart in the source
[23] = target: HIV-1 envelope glycoprotein (gp120) of virus 7141 (HIV-1); remark: listed apart in the source
[24] = target: HIV-1 envelope glycoprotein (gp120) of virus 92US712 (HIV-1); remark: listed apart in the source
[25] = target: HIV-1 envelope glycoprotein gp120 of virus CH106 (HIV-1)
[26] = target: HIV-1 envelope glycoprotein gp120 of virus 8117 (HIV-1)
[27] = target: HIV-1 envelope glycoprotein gp120 of virus 92HT593 (HIV-1)
[28] = target: HIV-1 envelope glycoprotein gp120 of virus 8339 (HIV-1)
[29] = target: HIV-1 envelope glycoprotein gp120 of virus 92US727 (HIV-1)
[30] = target: HIV-1 envelope glycoprotein gp120 of virus BaL (HIV-1)
[31] = target: HIV-1 envelope glycoprotein gp120 of virus 92US657 (HIV-1)
[32] = target: HIV-1 envelope glycoprotein gp120 of virus 1413 (HIV-1)
[33] = target: HIV-1 envelope glycoprotein gp120 of virus 7015 (HIV-1)

B1: Antibody B-1 (antibody, human IgG1, kappa)
heavy: QVHLSQSGAAVTKPGASVRVSCEASGYKISDHFIHWWRQAPGQGLQWVGWINPKTGQPNNPRQFQGRVSLTRQASWDFDTYSFYMDLKAVRSDDTAIYFCARQRSDFWDFDVWGSGTQVTVSSASTKGPSVFPLAPSSKSTSGGTAALGCLVKDYFPEPVTVSWNSGALTSGVHTFPAVLQSSGLYSLSSVVTVPSSSLGTQTYICNVNHKPSNTKVDKKVEPKSCDKTHTCPPCPAPELLAGPDVFLFPPKPKDTLMISRTPEVTCVVVDVSHEDPEVKFNWYVDGVEVHNAKTKPREEQYNSTYRVVSVLTVLHQDWLNGKEYKCKVSNKALPLPEEKTISKAKGQPREPQVYTLPPSREEMTKNQVSLTCLVKGFYPSDIAVEWESNGQPENNYKTTPPVLDSDGSFFLYSKLTVDKSRWQQGNVFSCSVLHEALHSHYTQKSLSLSPGK
light: not shown
For B1, the “Neutralization IC50” value [1] was 0.1 µg/mL, the “Neutralization IC50” value [2] was 0.24 µg/mL and the “Neutralization IC50” value [3] was 0.41 µg/mL. For the same binder, the “Neutralization IC50” value [4] was 0.35 µg/mL, the “Neutralization IC50” value [5] was 1.51 µg/mL and the “Neutralization IC50” value [6] was 2.51 µg/mL. The “Neutralization IC50” value [7] was 5.32 µg/mL, the “Neutralization IC50” value [8] was 0.27 µg/mL and the “Neutralization IC50” value [9] was > 50 µg/mL. The “Neutralization IC50” value [10] was 26 µg/mL, the “Neutralization IC50” value [11] was > 50 µg/mL and the “Neutralization IC50” value [12] was 0.14 µg/mL. For the same binder, the “Neutralization IC50” value [13] was 1.24 µg/mL, the “Neutralization IC50” value [14] was 2.13 µg/mL and the “Neutralization IC50” value [15] was 1.67 µg/mL. The “Neutralization IC50” value [16] was > 50 µg/mL, the “Neutralization IC50” value [17] was 0.11 µg/mL and the “Neutralization IC50” value [18] was 0.09 µg/mL. For the same binder, the “Neutralization IC50” value [19] was 1.12 µg/mL, the “Neutralization IC50” value [20] was 0.53 µg/mL and the “Neutralization IC50” value [21] was 0.29 µg/mL. The “Neutralization IC50” value [22] was 2.57 µg/mL, the “Neutralization IC50” value [23] was 1.43 µg/mL and the “Neutralization IC50” value [24] was 0.13 µg/mL.

B2: Antibody 1.1.112-1 (antibody, human IgG1, kappa)
heavy: B1 heavy with H3Q, S5L, K28N, S30R, H32Y, Q73H, Y81F, V90L, I97V, F107Y
light: not shown
With B2 the “HIV Neutralization Potency” value [25] was 1.31 µg/mL, the “HIV Neutralization Potency” value [26] was 1.45 µg/mL and the “HIV Neutralization Potency” value [27] was 0.56 µg/mL. For the same binder, the “HIV Neutralization Potency” value [28] was 31.4 µg/mL, the “HIV Neutralization Potency” value [29] was 30.3 µg/mL and the “HIV Neutralization Potency” value [30] was 0.12 µg/mL. For the same binder, the “HIV Neutralization Potency” value [31] was 0.74 µg/mL, the “HIV Neutralization Potency” value [32] was 2.05 µg/mL and the “HIV Neutralization Potency” value [33] was 0.75 µg/mL.
